Experiments:
[1] = Three-dimensional structure by X-ray crystallography; type: physicochemical
From the text: In the example of the synthetic peptide having the amino acid sequence of SEQ ID NO:35, generally speaking, the majority of amino acid substitutions in the “a” position and “d” position were either leucine for isoleucine, or isoleucine for leucine, or a less bulky amino acid (e.g., valine) for either isoleucine or leucine. In comparing Table 1 with Table 2, and the biochemical and antiviral properties of the synthetic peptide having the amino acid sequence of SEQ ID NO:32 with the synthetic peptide having the amino acid sequence of SEQ ID NO:35, it was an unexpected result that by making these changes in the “a” position of at least one heptad of the plurality of heptads, and in the “d” position of at least one heptad of the plurality of heptads that improved is stability of the peptide as measured by a higher Tm (e.g., despite the reduction in number of leucine zipper-like motifs). The three-dimensional structure of SEQ ID NO:35 was determined by X-ray crystallography using methods standard in the art.

[2] = tested on: HR2 peptide derived from the HR2 region of HIV-1 gp41; test: HR2 peptide binding kinetics, protein chip assay (Biacore, surface plasmon resonance)
From the text: (§1) These include a protein chip assay (using Biacore analysis) in which surface plasmon resonance is used to detect the binding, and kinetics thereof, between a synthetic peptide and an HR2 peptide; and a fluorescence polarization assay. In the fluorescence polarization assay, a detectable moiety comprising a fluorescent dye (e.g., rhodamine and/or fluorescein) was used to label HR2 peptide, and the assay was then allowed to proceed under sufficient conditions and for a sufficient period of time for labeled peptide to bind to HR1 peptide, or synthetic peptide (or trimer formed therefrom).

[3] = tested on: HR2 peptide (SEQ ID NO:33) derived from the HR2 region of HIV-1 gp41; test: HR2 peptide binding, fluorescence polarization assay; details: ability to complex with HR2 peptide denoted as yes
From the text: as §1

[4] = Oligomerization state by sedimentation equilibrium (analytical ultracentrifuge); type: physicochemical; details: in solution, 4° C.
Method: Oligomerization state was assessed by using methods standard in the art for performing sedimentation equilibrium experiments and for analysis of the resultant data. In that regard, sedimentation equilibrium experiments were performed over a concentration range of synthetic peptide (1 μM to […]) as follows. Briefly, six-channel cells (12 mm optical path length) were used with an An-60 Ti rotor operated at 13,500 rpm, 18,000 rpm, 22,000 rpm, and 35,000 rpm) in an analytical ultracentrifuge at 4° C. The cell radii were scanned using 0.001 cm steps with 10 averages/scan at 3 different wavelengths (235 nm, 240 nm, 280 nm). Data obtained with solutions containing synthetic peptide was analyzed using a single species model to determine a weight-averaged molecular weight (MW). Diagnostic plots of MW/MW0 vs. rpm/rpm0 and MW vs. radial concentration were used to test for sample homogeneity. When systemic residuals or a MW higher than monomer molecular weight indicated the presence of self-association, associative models were investigated. The suitability of a model (goodness of fit) was judged by the trends observed in the residuals.

[5] = Thermal stability (Tm) by CD signal at 222 nm; type: physicochemical; details: at 10 μM
Method: Helicity was assessed by circular dichroism (“CD”) as follows. Briefly, CD spectra were obtained using a spectrometer equipped with a thermoelectric temperature controller. The spectra was obtained at 25° C. with 0.5 nanometer (nm) steps from 200 to 260 nm, with a 1.5 nm bandwith, and a typical averaging time of 4 seconds/step. After the cell/buffer blank was subtracted, spectra were smoothed using a third-order least-squares polynomial fit with a conservative window size to give random residuals. Raw ellipticity values were converted to mean residue ellipticity using standard methods, and plotted was the wavelength (from 200 to 260 nm) versus [θ]×10^−3 (degrees cm^2/dmol). Percent helicity values were then calculated using standard methods. Assessment of thermal stability was performed by monitoring the change in CD signal at 222 nm as temperature was raised in 2° C. steps, with 1 minute equilibration times. The thermal stability for each sample (e.g., synthetic peptide) was represented by the transition temperature (Tm) determined by the derivative method.

| Structure (SMILES) | Oligomerization as determined by crystallography [1] | HR2 peptide binding K off [2] | HR2 peptide binding K on [2] | HR2 peptide binding [3] | Oligomerization [4] | Stability Tm [5] |
| --- | --- | --- | --- | --- | --- | --- |
| CC[C@H](C)[C@H](NC(=O)[C@H](Cc1ccc(O)cc1)NC(=O)[C@H](CCCNC(=N)N)NC(=O)[C@H](CCC(=O)O)NC(=O)[C@H](CC(C)C)NC(=O)[C@H](C)NC(=O)[C@H](CC(C)C)NC(=O)[C@@H](NC(=O)[C@H](CCCNC(=N)N)NC(=O)[C@H](C)NC(=O)[C@H](CCC(N)=O)NC(=O)[C@H](CC(C)C)NC(=O)[C@H](CCC(N)=O)NC(=O)[C@H](CCCCN)NC(=O)[C@@H](NC(=O)CNC(=O)[C@H](Cc1c[nH]c2ccccc12)NC(=O)[C@@H](NC(=O)[C@H](CC(C)C)NC(=O)[C@H](C)NC(=O)[C@H](CCC(N)=O)NC(=O)[C@@H](NC(=O)[C@H](C)NC(=O)[C@H](Cc1c[nH]cn1)NC(=O)[C@H](CCC(N)=O)NC(=O)[C@@H](NC(=O)[C@H](C)NC(=O)[C@H](CCC(=O)O)NC(=O)[C@H](CC(C)C)NC(=O)[C@H](C)NC(=O)[C@H](CCCNC(=N)N)NC(=O)[C@H](CC(C)C)NC(=O)[C@@H](NC(=O)[C@H](CC(N)=O)NC(=O)[C@H](CC(N)=O)NC(=O)[C@H](CCC(N)=O)NC(=O)[C@H](CCC(N)=O)NC(=O)[C@H](CCC(N)=O)NC(=O)[C@@H](NC(=O)[C@H](CC(C)C)NC(=O)CNC(=O)[C@H](CO)NC(=O)[C@@H](NC(=O)[C@H](CC(C)C)NC(=O)[C@H](CCC(N)=O)NC(=O)[C@H](CCCNC(=N)N)NC(=O)[C@H](C)NC(=O)[C@H](CCC(N)=O)NC(C)=O)C(C)C)C(C)C)[C@@H](C)CC)[C@@H](C)O)C(C)C)C(C)C)C(C)C)C(C)C)C(=O)N[C@@H](CCCCN)C(N)=O [SEQ ID NO: 35] | self-assembles into trimers | – | – | – | – | – |
| CC[C@H](C)[C@H](NC(=O)CNC(=O)[C@H](Cc1c[nH]c2ccccc12)NC(=O)[C@@H](NC(=O)[C@@H](NC(=O)[C@H](C)NC(=O)[C@H](CCC(N)=O)NC(=O)[C@H](CC(C)C)NC(=O)[C@H](C)NC(=O)[C@H](Cc1c[nH]cn1)NC(=O)[C@H](CCC(N)=O)NC(=O)[C@H](CCC(N)=O)NC(=O)[C@H](C)NC(=O)[C@H](CCC(=O)O)NC(=O)[C@@H](NC(=O)[C@H](C)NC(=O)[C@H](CCCNC(=N)N)NC(=O)[C@H](CC(C)C)NC(=O)[C@H](CC(C)C)NC(=O)[C@H](CC(N)=O)NC(=O)[C@H](CC(N)=O)NC(=O)[C@H](CCC(N)=O)NC(=O)[C@H](CCC(N)=O)NC(=O)[C@H](CCC(N)=O)NC(=O)[C@@H](NC(=O)[C@@H](NC(=O)CNC(=O)[C@H](CO)NC(=O)[C@H](CC(C)C)NC(=O)[C@H](CC(C)C)NC(=O)[C@H](CCC(N)=O)NC(=O)[C@H](CCCNC(=N)N)NC(=O)[C@H](C)NC(=O)[C@H](CCC(N)=O)NC(C)=O)[C@@H](C)CC)C(C)C)[C@@H](C)CC)[C@@H](C)O)C(C)C)C(=O)N[C@@H](CCCCN)C(=O)N[C@@H](CCC(N)=O)C(=O)N[C@@H](CC(C)C)C(=O)N[C@@H](CCC(N)=O)C(=O)N[C@@H](C)C(=O)N[C@@H](CCCNC(=N)N)C(=O)N[C@H](C(=O)N[C@@H](CC(C)C)C(=O)N[C@@H](C)C(=O)N[C@H](C(=O)N[C@@H](CCC(=O)O)C(=O)N[C@@H](CCCNC(=N)N)C(=O)N[C@@H](Cc1ccc(O)cc1)C(=O)N[C@@H](CC(C)C)C(=O)N[C@@H](CCCCN)C(N)=O)C(C)C)[C@@H](C)CC [SEQ ID NO: 32] | – | 1.9 × 10^−3/ | 6.1 × 10^5 | retain the ability to complex with peptides derived from the HR2 region | trimeric | – |
| CC[C@H](C)[C@H](NC(=O)CNC(=O)[C@H](Cc1c[nH]c2ccccc12)NC(=O)[C@@H](NC(=O)[C@@H](NC(=O)[C@H](C)NC(=O)[C@H](CCC(N)=O)NC(=O)[C@H](CC(C)C)NC(=O)[C@H](C)NC(=O)[C@H](Cc1c[nH]cn1)NC(=O)[C@H](CCC(N)=O)NC(=O)[C@@H](NC(=O)[C@H](C)NC(=O)[C@H](CCC(=O)O)NC(=O)[C@@H](NC(=O)[C@H](C)NC(=O)[C@H](CCCNC(=N)N)NC(=O)[C@H](CC(C)C)NC(=O)[C@H](CC(C)C)NC(=O)[C@H](CC(N)=O)NC(=O)[C@H](CC(N)=O)NC(=O)[C@H](CCC(N)=O)NC(=O)[C@H](CCC(N)=O)NC(=O)[C@H](CCC(N)=O)NC(=O)[C@@H](NC(=O)[C@@H](NC(=O)CNC(=O)[C@H](CO)NC(=O)[C@H](CC(C)C)NC(=O)[C@H](CC(C)C)NC(=O)[C@H](CCC(N)=O)NC(=O)[C@H](CCCNC(=N)N)NC(=O)[C@@H](NC(=O)[C@H](CCC(N)=O)NC(C)=O)[C@@H](C)CC)[C@@H](C)CC)C(C)C)[C@@H](C)CC)[C@@H](C)CC)[C@@H](C)CC)C(C)C)C(=O)N[C@@H](CCCCN)C(=O)N[C@@H](CCC(N)=O)C(=O)N[C@@H](CC(C)C)C(=O)N[C@@H](CCC(N)=O)C(=O)N[C@@H](C)C(=O)N[C@@H](CCCNC(=N)N)C(=O)N[C@H](C(=O)N[C@@H](CC(C)C)C(=O)N[C@@H](C)C(=O)N[C@H](C(=O)N[C@@H](CCC(=O)O)C(=O)N[C@@H](CCCNC(=N)N)C(=O)N[C@@H](Cc1ccc(O)cc1)C(=O)N[C@@H](CC(C)C)C(=O)N[C@@H](CCCCN)C(N)=O)C(C)C)[C@@H](C)CC [SEQ ID NO: 36] | Trimer* | 3.3 × 10^−3 | 4.3 × 10^5 | retain HIV gp41 HR2 binding activity | – | Tm > 97 °C |
| CC[C@H](C)[C@H](NC(=O)CNC(=O)[C@H](Cc1c[nH]c2ccccc12)NC(=O)[C@@H](NC(=O)[C@@H](NC(=O)[C@H](CC(C)C)NC(=O)[C@H](CCC(N)=O)NC(=O)[C@H](CC(C)C)NC(=O)[C@H](CC(C)C)NC(=O)[C@H](Cc1c[nH]cn1)NC(=O)[C@H](CCC(N)=O)NC(=O)[C@H](CCC(N)=O)NC(=O)[C@H](C)NC(=O)[C@H](CCC(=O)O)NC(=O)[C@@H](NC(=O)[C@H](C)NC(=O)[C@H](CCCNC(=N)N)NC(=O)[C@H](CC(C)C)NC(=O)[C@H](CC(C)C)NC(=O)[C@H](CC(N)=O)NC(=O)[C@H](CC(N)=O)NC(=O)[C@H](CCC(N)=O)NC(=O)[C@H](CCC(N)=O)NC(=O)[C@H](CCC(N)=O)NC(C)=O)[C@@H](C)CC)[C@@H](C)O)C(C)C)C(=O)N[C@@H](CCCCN)C(=O)N[C@@H](CCC(N)=O)C(=O)N[C@@H](CC(C)C)C(=O)N[C@@H](CCC(N)=O)C(=O)N[C@@H](C)C(=O)N[C@@H](CCCNC(=N)N)C(=O)N[C@H](C(=O)N[C@@H](CC(C)C)C(=O)N[C@@H](C)C(=O)N[C@H](C(=O)N[C@@H](CCC(=O)O)C(=O)N[C@@H](CCCNC(=N)N)C(=O)N[C@@H](Cc1ccc(O)cc1)C(=O)N[C@@H](CC(C)C)C(=O)N[C@@H](CCCCN)C(=O)N[C@@H](CC(=O)O)C(=O)N[C@@H](CCC(N)=O)C(N)=O)C(C)C)[C@@H](C)CC [SEQ ID NO: 27, reference compound] | – | – | – | – | Tetra- | 76 °C |

From patent US20040076637A1, “HIV-derived HR1 peptides modified to form stable trimers, and their use in therapy to inhibit transmission of human immunodeficiency virus” (priority 2002, published 2004)
